Assay results reported in patent publication US7544773B2 (priority 2003, dated 2009).

Amino acid sequences for entries named in this document (tags omitted). A change or cut given only in a name is not applied to a line headed by its entry.
UniProt P26948: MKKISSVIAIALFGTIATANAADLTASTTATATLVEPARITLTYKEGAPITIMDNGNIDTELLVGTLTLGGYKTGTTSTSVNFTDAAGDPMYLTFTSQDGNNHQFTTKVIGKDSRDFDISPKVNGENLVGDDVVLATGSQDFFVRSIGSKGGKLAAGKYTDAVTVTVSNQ

Molecular target: Caf1 (Yersinia pestis, UniProt P26948)
Conditions: peptide 10^−4 to 10^−8 M, E. coli DH5α/pFMA

How did the “inhibition of expression of Caf1 on the surface of cells” value turn out when Ala-Thr-Ala-Thr-Leu-Val was run?
The value was “clearly inhibits”.
